{
  "source": "patent US20060111420A1",
  "about": "“Sorbicillactone-a derivatives for the treatment of tumour and viral diseases” (Johannes Gutenberg-Universitat Mainz, priority 2002, published 2006)",
  "key": {"HIV p24 (gag-protein)": {"system": "HIV p24 (gag-protein)", "assay": "Expression of p24 in infected H9-cells (indirect immunofluorescence)", "conditions": "for Expression of p24 (in %): control 100; for effect on the expression of p24 (in words): infected H9-cells"}, "[1]": {"system": "H9-cells infected with HTLV-IIIB (HIV-1)", "assay": "Cellular growth of HTLV-IIIB infected H9-cells", "conditions": "for Cellular concentration × 1,000,000/ml: 4 days, infected control 0.62"}, "[2]": {"system": "HTLV-IIIB (HIV-1)-viruses in H9-cells", "assay": "Production of reverse transcriptase (viral production) in H9-HTLV-IIIB-cells", "conditions": "4 days; for reverse transcriptase activity (100%): control 100"}, "HIV p15 (Gag-Protein)": {"system": "HIV p15 (Gag-Protein)", "assay": "Expression of p15 in infected H9-cells (indirect immunofluorescence)", "conditions": "for Expression of p15 (in %): control 100; for effect on the expression of p15 (in words): infected H9-cells"}},
  "data": [
    {"smiles": "C/C=C/C=C/C(O)=C1/C(=O)C(C)=C(O)[C@@]2(C)OC(=O)[C@@](C)(NC(=O)/C=C/C(=O)O)[C@@H]12", "note": "[Sorbicillacton A, sorbicillacton A]", "values": [
      {"measurement": "Expression of p24 (in %)", "setting": "HIV p24 (gag-protein); 0.1 μg/ml", "result": 93, "unit": "%"},
      {"measurement": "Expression of p24 (in %)", "setting": "HIV p24 (gag-protein); 0.3 μg/ml", "result": 42, "unit": "%"},
      {"measurement": "Expression of p24 (in %)", "setting": "HIV p24 (gag-protein); 1.0 μg/ml", "result": 28, "unit": "%"},
      {"measurement": "Expression of p24 (in %)", "setting": "HIV p24 (gag-protein); 3.0 μg/ml", "result": 24, "unit": "%"},
      {"measurement": "effect on the expression of p24 (in words)", "setting": "HIV p24 (gag-protein)", "result": "strong inhibiting effect"},
      {"measurement": "Cellular concentration × 1,000,000/ml", "setting": "[1]; 0.1 μg/ml", "result": "0.68 × 1,000,000/ml"},
      {"measurement": "Cellular concentration × 1,000,000/ml", "setting": "[1]; 0.3 μg/ml", "result": "0.83 × 1,000,000/ml"},
      {"measurement": "Cellular concentration × 1,000,000/ml", "setting": "[1]; 1.0 μg/ml", "result": "1.39 × 1,000,000/ml"},
      {"measurement": "Cellular concentration × 1,000,000/ml", "setting": "[1]; 3.0 μg/ml", "result": "0.92 × 1,000,000/ml"},
      {"measurement": "growth rate of H9-HTLV-IIIB-cells (in words)", "setting": "[1]; 0.3 to 3.0 μg/ml, to values in the range of uninfected H9 controls", "result": "increases the growth rate"},
      {"measurement": "reverse transcriptase activity (100%)", "setting": "[2]; 0.1 μg/ml", "result": 83, "unit": "%"},
      {"measurement": "reverse transcriptase activity (100%)", "setting": "[2]; 0.3 μg/ml", "result": 28, "unit": "%"},
      {"measurement": "reverse transcriptase activity (100%)", "setting": "[2]; 1.0 μg/ml", "result": 22, "unit": "%"},
      {"measurement": "reverse transcriptase activity (100%)", "setting": "[2]; 3.0 μg/ml", "result": 14, "unit": "%"},
      {"measurement": "activity of reverse transcriptase in the supernatant (in words)", "setting": "[2]; H9-HTLV-IIIB-cells", "result": "dose-dependent reduction"},
      {"measurement": "Expression of p15 (in %)", "setting": "HIV p15 (Gag-Protein); 0.1 μg/ml", "result": 98, "unit": "%"},
      {"measurement": "Expression of p15 (in %)", "setting": "HIV p15 (Gag-Protein); 0.3 μg/ml", "result": 65, "unit": "%"},
      {"measurement": "Expression of p15 (in %)", "setting": "HIV p15 (Gag-Protein); 1.0 μg/ml", "result": 31, "unit": "%"},
      {"measurement": "Expression of p15 (in %)", "setting": "HIV p15 (Gag-Protein); 3.0 μg/ml", "result": 47, "unit": "%"},
      {"measurement": "effect on the expression of p15 (in words)", "setting": "HIV p15 (Gag-Protein)", "result": "strong inhibiting effect"}
    ]},
    {"smiles": "C/C=C/C=C/C(O)=C1/C(=O)C(C)=C(O)C2(C)OC(=O)C(C)(NC(=O)C3NN=CC3C(=O)OC)C12", "note": "(stereo not shown) [SOA-D1]", "values": [
      {"measurement": "effect on the expression of p24 (in words)", "setting": "HIV p24 (gag-protein)", "result": "strong inhibiting effect"},
      {"measurement": "effect on the expression of p15 (in words)", "setting": "HIV p15 (Gag-Protein)", "result": "strong inhibiting effect"}
    ]}
  ]
}
